Pooled drug test results. Numbers come from NIAID ChemDB, via PubChem.

All rows: tests on isolated targets; agent: HIV-1; protein: Reverse transcriptase; read by: nucleotide incorporation / radiometric; endpoint: IC50

ICn: concentration for n% inhibition. Blank or dashed fields: not listed here. Conditions beyond the fields shown may differ between rows. a–b is a range or a potency band.

| structure | changes | strain or isolate | value |
|---|---|---|---|
| NS(=O)(=O)c1ccc(NC(=O)CSc2nnc(C(F)F)n2-c2ccc(C3CCC3)c3ccccc23)c(Cl)c1 |  |  | <0.05 µM |
| CCN1c2ncc(CCOc3ccc(C(=O)O)c4c3CCC4)cc2C(=O)N(C)c2cccnc21 | RT-K103N Y181C |  | 0.1–1 µM |
| CCN1c2ncc(CCOc3ccc(C(=O)NS(C)(=O)=O)cc3C)cc2C(=O)N(C)c2cccnc21 | RT-K103N Y181C | IIIB | 0.05–0.1 µM |
| CCN1c2ncc(CCOc3ccc(C(=O)O)c4c3CCN(C(=O)OC)C4)cc2C(=O)N(C)c2cccnc21 |  | WT | <0.1 µM |
| O=C(CSc1nnc(Br)n1-c1ccc(C2CCC2)c2ccccc12)Nc1ccc(C(=O)O)cc1Cl | RT-Y188L |  | >0.1 µM |
| Cc1ccc(-n2c(SCC(=O)Nc3ccc(S(=O)(=O)NCCC(=O)O)cc3Cl)nnc2C(F)F)c2c1CCCC2 | RT-Y181C |  | >0.1 µM |
| CCN1c2ncc(CCOc3cccc4c3ccc[n+]4[O-])cc2C(=O)Nc2c(C)cc(Cl)nc21 | RT-K103N | RT -K103N | 0.025 µM |
| CCN1c2ncc(CCOc3ccc(C(=O)NC(C)(C)CC(=O)O)cc3C)cc2C(=O)N(C)c2cccnc21 |  | IIIB | <0.05 µM |
| CCN1c2ncc(CCOc3ccc(CC(=O)O)c4ccccc34)cc2C(=O)Nc2c(C)cc(Cl)nc21 | RT-Y188L |  | >1 µM |
| CCN1c2ncc(CCOc3ccc(-c4cc(CC(=O)O)ccc4OC)cc3C)cc2C(=O)N(C)c2cccnc21 |  | IIIB | <0.05 µM |
| Cc1cc(C2CC2)cc(Cl)c1-n1c(Br)nnc1SCC(=O)Nc1ccc(C(=O)O)cc1Cl | RT-Y181C |  | <0.05 µM |
| CCc1ccc(-n2c(Br)nnc2SCC(=O)Nc2ccc(C(=O)NCC3CCCO3)cc2Cl)c2ccccc12 |  |  | <0.05 µM |
| CCN1c2ncc(CCOc3ccc(-c4cc(C(=O)O)c[n+]([O-])c4)cc3C)cc2C(=O)N(C)c2cccnc21 |  | IIIB | <0.05 µM |
| Cc1cc(C2CC2)c2ccccc2c1-n1c(Br)nnc1SCC(=O)Nc1ccc(C(=O)O)cc1Cl | RT-Y188L |  | >0.1 µM |
| CCN1c2ncc(CCOc3ccc(NC(=O)c4ccc(Cl)nc4)cc3C)cc2C(=O)N(C)c2cccnc21 |  | IIIB | <0.05 µM |
| COc1ccc2c(C)ccc(-n3c(Br)nnc3SCC(=O)Nc3ccc(S(N)(=O)=O)cc3Br)c2c1 | RT-Y181C |  | <0.05 µM |
| CCN1c2ncc(CCOc3ccc4cc(CC(=O)NN)ccc4c3)cc2C(=O)N(C)c2cccnc21 | RT-K103N Y181C |  | 0.1–1 µM |
| CCN1c2ncc(CCOc3ccc(-c4cccc(CC(=O)O)c4)cc3)cc2C(=O)N(C)c2cccnc21 |  | IIIB | <0.05 µM |

The first 2 rows once more:

structure | changes | strain or isolate | value
NS(=O)(=O)c1ccc(NC(=O)CSc2nnc(C(F)F)n2-c2ccc(C3CCC3)c3ccccc23)c(Cl)c1 |  |  | <0.05 µM
CCN1c2ncc(CCOc3ccc(C(=O)O)c4c3CCC4)cc2C(=O)N(C)c2cccnc21 | RT-K103N Y181C |  | 0.1–1 µM